# Results: PubChem BioAssay AID2320 (National Center for Advancing Translational Sciences (NCATS), 2010)
# This is a selection; strong and weak results do not stand in their true shares. Inconclusive results are not listed. The source made the active and inactive calls. Calls follow the shape of the full dose curve.
# Experiment: A qHTS for Small Molecule Inhibitors of Shiga Toxin (Confirmatory); also: 0% is about no effect; nearly all actives have a fitted effect of over 75% in size
# Conditions: Cell-based Shiga toxin protection reporter assay; at 38.3 µM (top of the series)
smiles,measurement,value
O=[N+]([O-])c1cc([N+](=O)[O-])c(-c2ccn[nH]2)s1,"activity, positive = inhibition of toxin",inactive: 32.8%
